Pooled drug test results. Numbers come from NIAID ChemDB, via PubChem.

An empty or dashed field is not shown. Rows are shuffled and stem from different studies. ECn is the concentration giving n% inhibition of infection, replication or growth. Fold resistance has wild type as its base. MIC50, MIC90 and the like: level of inhibition, or share of isolates inhibited. ICn: concentration for n% inhibition.

smiles,method,mutations,kind,organism,cells,target,measure,strain or isolate,value
CCCCCCCC/C=C/CCCCCCCC(=O)Nc1nnc(NCCC(=O)OC(C)(C)C)s1,,,target,Human cytomegalovirus,,Polymerase,IC50,,<25 µM
CC(C)C(=O)N1C[C@H](CN2CCC(c3ccccc3)CC2)[C@@H](c2ccccc2)C1,radiometric,CCR5-Y251A,target,,,CCR5,fold resistance,,81.7
Cc1cn([C@@H]2O[C@H](CO[Si](C)(C)C(C)(C)C)C3(OS(=O)(=O)C=C3N)[C@H]2O[Si](C)(C)C(C)(C)C)c(=O)n(C)c1=O,nucleotide incorporation / radiometric,RT-N137E,target,HIV,,Reverse transcriptase,IC50,,1.7 µM
C#CC[C@@H](C(=O)N[C@H](/C=C/C(=O)OCC)C[C@@H]1CCNC1=O)n1cccc(NC(=O)c2cc(C)on2)c1=O,cytopathic effect / XTT,,culture,Rhinovirus,H1-HELA,,EC50,Serotype 14,0.053 µM
O=C(Nc1nnc(NCc2ccc(Cl)c(Cl)c2)s1)c1c(Cl)cccc1Cl,,,target,Human cytomegalovirus,,Polymerase,IC50,,<25 µM
O=C(C1CCCCC1)N1C[C@H](CN2CCC(c3ccccc3)CC2)[C@@H](c2ccccc2)C1,radiometric,CCR5-W86A,target,,,CCR5,IC50,,>1 µM
O=C(Nc1nnc(NC2CCCCCC2)s1)c1cc2ccccc2s1,,,target,Human cytomegalovirus,,Polymerase,IC50,,>25 µM
CCO/N=C/c1ccc(OCCC2CCN(c3ccc(C)nn3)CC2)cc1,neutral red,,culture,Rhinovirus,KB,,EC50,47-CV21 (ICAM-1 receptor group 21),0.005 µM
Nc1nc2c(ncn2[C@H]2CC[C@@H](COP(=O)(O)OP(=O)(O)OP(=O)(O)O)O2)c(=O)[nH]1,nucleotide incorporation / radiometric,RT-N137K,target,HIV,,Reverse transcriptase,fold resistance,,128
C[C@H](Cc1ccc(O)c(O)c1)[C@@H](C)Cc1ccc(O)c(O)c1,broth dilution,,culture,Candida albicans,,,MIC100,CCC 127-2000,250 µg/mL
CC(C)=CCN1c2cc(Cl)cc3[nH]c(=S)n(c23)C[C@@H]1C,,RT-L74V,culture,HIV-1,MT-4,,EC95,,0.05 µM
CCCCCCCC/C=C/CCCCCCCC(=O)Nc1nnc(NCc2ccc3c(c2)OCO3)s1,,,target,Human cytomegalovirus,,Polymerase,IC50,,<25 µM
CC(C)=CCOc1cc(NC(=S)c2ccoc2C)ccc1Cl,nucleotide incorporation / radiometric,RT-P140A,target,HIV,,Reverse transcriptase,fold resistance,,0.41
CCOc1ccc2ccccc2c1C(=O)Nc1nnc(NCCSc2ccccc2)s1,,,target,Human cytomegalovirus,,Polymerase,IC50,,>25 µM
O=C(c1ccccc1)N1C[C@H](CN2CCC(c3ccccc3)CC2)[C@@H](c2ccccc2)C1,radiometric,CCR5-D276A,target,,,CCR5,IC50,,0.016 µM

2 of the rows above, restated:

CCCCCCCC/C=C/CCCCCCCC(=O)Nc1nnc(NCCC(=O)OC(C)(C)C)s1 ; kind: target ; organism: Human cytomegalovirus ; target: Polymerase ; measure: IC50 ; value: <25 µM
CCOc1ccc2ccccc2c1C(=O)Nc1nnc(NCCSc2ccccc2)s1 ; kind: target ; organism: Human cytomegalovirus ; target: Polymerase ; measure: IC50 ; value: >25 µM